Results of unrelated studies side by side (data: NIAID ChemDB).

Common to all: tests in culture; species: HIV-1; read by: RT activity; measure: EC50

ECn is the concentration giving n% inhibition of infection, replication or growth.

smiles,conditions,cells,mutations,strain,result
Cc1cn([C@@H]2C[C@@H](O)[C@H](CO)O2)c(=O)[nH]c1=O,-,PBMC,-,LAI,>200 µM
Nc1nc2c(ncn2[C@H]2C=C[C@@H](CO)C2)c(=O)o1,-,H9,-,IIIB,320 µg/mL
Nc1ccn([C@H]2CC[C@@H](CO)C2)c(=O)n1,-,PBMC,-,LAV,>100 µM
O=C(CCNC(=O)C(=O)/C=C(\O)c1cccn1Cc1ccc(F)cc1)OC[C@@H]1C=C[C@H](n2ccc(=O)[nH]c2=O)O1,-,CEM + CEM-SS,-,LAI,>10 µM
Nc1nc(Cl)nc2c1ncn2[C@@H]1C[C@@H](O)[C@H](CO)O1,-,PBMC,-,LAI,>10 µM
Nc1ccn([C@H]2CO[C@@H](CO)O2)c(=O)n1,-,PBM,-,LAV,0.0047 µM
Nc1nc(NC2CCC2)c2ncn([C@H]3CO[C@@H](CO)O3)c2n1,-,PBMC,-,LAI,2.2 µM
Cc1cn([C@H]2C=C[C@@H](CO)O2)c(=O)[nH]c1=O,-,PBMC,-,LAV,0.009 µM
Nc1nc(=O)n([C@@H]2C[C@@H](O)[C@H](CO)O2)cc1F,-,PBMC,-,LAI,>100 µM
Cc1cn([C@H]2C[C@H](N=[N+]=[N-])[C@@H](COP(=O)(OCCCCSC(=O)C(C)(C)C)OCCCCSC(=O)C(C)(C)C)O2)c(=O)[nH]c1=O,-,CEM + CEM-SS,-,LAI,1 µM
Nc1nc(N)c2ncn([C@H]3CO[C@@H](CO)O3)c2n1,-,PBMC,-,LAI,6.9 µM
CN(C)CCN(C)CCCCCCCCOP(=O)(O)OC[C@H]1OC(O)[C@H](O)[C@@H](O)[C@@H]1O,-,CEM + CEM-4,-,LAI,1 µM
CCc1cn([C@H]2CC[C@@H](CO)O2)c(=O)[nH]c1=O,-,PBMC,-,LAV,4.9 µM
CCOP(=O)(OCC)C(F)(F)C[C@@]1(F)CO[C@H](n2cc(C)c(=O)[nH]c2=O)C1,-,PBMC,-,-,80 µM
CN(C)c1nc(N)nc2c1ncn2[C@H]1CO[C@@H](CO)O1,-,PBMC,-,LAI,0.87 µM
COC(=O)C(C)CNP(=O)(OC[C@@H]1CC[C@H](n2cc(C)c(=O)[nH]c2=O)O1)Oc1ccc(Cl)cc1,-,CEM(TK-) + CEM TK-,-,-,21.9 µM
Cc1cn([C@H]2C=C[C@@H](COC(=O)CCNC(=O)C(=O)/C=C(\O)c3cccn3Cc3ccc(F)cc3)O2)c(=O)[nH]c1=O,-,CEM + CEM-SS,-,LAI,5 µM
Nc1nc2c(ncn2C2CC(/C=C/P(=O)(O)O)(C(F)(F)F)CO2)c(=O)[nH]1,-,PBMC,-,LAI,42 µM
Nc1nc2c(ncn2[C@H]2C[C@H](O)[C@@H](CO)O2)c(=O)o1,-,H9,-,IIIB,>500 µg/mL
CCc1cn([C@H]2C=C[C@@H](CO)O2)c(=O)[nH]c1=O,-,PBMC,-,LAV,75.7 µM
Nc1nc(=O)n([C@@H]2C=C(F)[C@H](CO)S2)cc1F,-,PBMC,-,xxBRU WT,<0.35 µM
Nc1nc2c(ncn2[C@H]2CC[C@@H](CO)O2)c(=O)o1,chronic infection,U-937/HIV-1(IIIB) + U-937,-,IIIB,>100 µg/mL
Cc1cn([C@H]2CC[C@@H](CO)O2)c(=O)[nH]c1=O,-,PBMC,-,LAV,0.17 µM
CCCc1cc(=O)oc2c3c(c4c(c12)OC(C)(C)C=C4)O[C@@H](C)[C@H](C)[C@@H]3O,-,PBMC,-,CLADE F,0.1 µM
CC(=O)c1cccc(C(=O)COCCCCCCCCOP(=O)(OC[C@H]2OC(O)[C@H](O)[C@@H](O)[C@@H]2O)OC[C@H]2O[C@@H](n3cc(C)c(=O)[nH]c3=O)C[C@@H]2N=[N+]=[N-])n1,-,CEM + CEM-4,-,LAI,2 µM
CC(C)(C)C(=O)SCCOP(=O)(OCCSC(=O)C(C)(C)C)OC[C@@H]1CC[C@H](n2cnc3c(N)ncnc32)O1,-,CEM + CEM TK-,-,LAI,0.0011 µM
Nc1nc2c(ncn2[C@H]2C=C[C@@H](CO)O2)c(=O)[nH]1,-,PBMC,-,LAV,>100 µM
Nc1nc2c(ncn2[C@H]2CO[C@@H](CO)O2)c(=O)n1Cc1ccccc1,-,PBMC,-,LAI,>100 µM
Cc1cn([C@@H]2C=C[C@H](CO)O2)c(=O)[nH]c1=O,-,PBMC,-,LAV,>100 µM
COC(=O)C(C)CNP(=O)(OC[C@@H]1CC[C@H](n2cc(C)c(=O)[nH]c2=O)O1)Oc1ccc(OC)cc1,-,CEM(TK-) + CEM TK-,-,-,19.7 µM
Cc1ccnc2c1NC(=O)c1cccnc1N2C1CC1,-,PBMC,-,CLADE C,0.05 µM
Nc1nc(=O)n([C@@H]2C[C@@H](F)[C@H](CO)O2)cc1F,-,PBMC,-,LAV,>100 µM
Cc1cn([C@H]2C[C@H](N=[N+]=[N-])[C@@H](CO)O2)c(=O)[nH]c1=O,-,PBMC,-,LAI,0.026 µM
Nc1ncnc2c1ncn2[C@@H]1C[C@@H](N)[C@H](CO)O1,-,PBMC,-,LAV,>10 µM
Cc1cn([C@H]2C[C@H](N=[N+]=[N-])[C@@H](CO)O2)c(=O)[nH]c1=O,-,PBMC,-,-,0.002 µM
Cc1ccc(C(=O)Nc2ccc(S(=O)(=O)O)c3cc(S(=O)(=O)O)cc(S(=O)(=O)O)c23)cc1NC(=O)c1cccc(NC(=O)Nc2cccc(C(=O)Nc3cc(C(=O)Nc4ccc(S(=O)(=O)O)c5cc(S(=O)(=O)O)cc(S(=O)(=O)O)c45)ccc3C)c2)c1,-,-,-,LAV,250 µM
Nc1ncnc2c1ncn2C1CC(/C=C/P(=O)(O)O)(C(F)(F)F)CO1,-,PBMC,-,LAI,48 µM
Nc1nc(=O)n([C@@H]2C[C@@H](F)[C@H](CO)O2)cc1F,-,PBMC,-,LAI,>100 µM
Cc1cn([C@H]2C[C@H](F)[C@@H](CO)O2)c(=O)[nH]c1=O,-,MT-4,-,121-2(PRE-AZT),0.005 µM
Cc1cn([C@H]2C[C@H](N=[N+]=[N-])[C@@H](CO)O2)c(=O)[nH]c1=O,-,PBMC,-,LAV,0.002 µM
COC(=O)C(C)CNP(=O)(OC[C@@H]1CC[C@H](n2cc(C)c(=O)[nH]c2=O)O1)Oc1ccccc1,-,CEM(TK-) + CEM TK-,-,-,7.5 µM
[N-]=[N+]=Nc1nc(N)nc2c1ncn2[C@H]1CO[C@@H](CO)O1,-,PBMC,-,LAI,13 µM
CCCc1cc(=O)oc2c3c(c4c(c12)OC(C)(C)C=C4)O[C@H](C)[C@@H](C)[C@@H]3O,-,PBMC,-,CLADE F,0.04 µM
CC1(C)[C@@H](O[C@H]2O[C@H](C(=O)O)[C@@H](O)[C@H](O)[C@H]2O[C@@H]2O[C@H](C(=O)O)[C@@H](O)[C@H](O)[C@H]2O)CC[C@]2(C)[C@H]3C(=O)C=C4[C@@H]5C[C@@](C)(C(=O)O)CC[C@]5(C)CC[C@@]4(C)[C@]3(C)CC[C@@H]12,-,MT-4,-,-,178 µM
Nc1nc(Cl)nc2c1ncn2[C@H]1C=C[C@@H](CO)O1,-,C8166,-,HXBc2,<20 µM
Nc1ncnc2c1ncn2[C@H]1CC[C@@H](CO)O1,-,PBMC,-,LAV,0.91 µM
COc1ccccc1CN[C@H]1C2CCN(CC2)[C@H]1C(c1ccccc1)c1ccccc1,-,Macrophage + Monocytes/macrophages,-,ADA R5 isolate,<0.1 µM
Cc1cn([C@@H]2C[C@@H](O)[C@H](CO)O2)c(=O)[nH]c1=O,-,PBMC,-,LAV,>200 µM
CC(C)(C)C(=O)SCCOP(=O)(OCCSC(=O)C(C)(C)C)C(F)(F)C[C@@]1(F)CO[C@@H](n2cnc3c(N)ncnc32)C1,-,PBMC,-,-,10.8 µM
Cc1cn([C@H]2C[C@H](N=[N+]=[N-])[C@@H](COP(=O)(OCCSC(=O)C(C)(C)C)OCCSC(=O)C(C)(C)C)O2)c(=O)[nH]c1=O,-,CEM + CEM TK-,-,LAI,0.011 µM
Cc1cn([C@@H]2C[C@@H](F)[C@H](CO)O2)c(=O)[nH]c1=O,-,PBMC,-,LAV,>100 µM
Nc1c(S(=O)(=O)O)cc2c3c(cc(S(=O)(=O)O)cc13)C(=O)N(NC(=O)N/N=C\c1ccc(-c3ccc(C=O)cc3)cc1)C2=O,-,-,-,LAV,180 µM
Nc1ncnc2c1ncn2CCOCP(=O)(O)O,-,PBMC,-,-,0.31 µM
Nc1nc(=O)n([C@@H]2C[C@@H](O)[C@H](CO)O2)cc1Cl,-,PBMC,-,LAV,>100 µM
Nc1ccn([C@@H]2C[C@@H](F)[C@H](CO)O2)c(=O)n1,-,PBMC,-,LAI,82 µM
Cc1cn([C@H]2C[C@H](N=[N+]=[N-])[C@@H](CO)O2)c(=O)[nH]c1=O,-,PBMC,RT-M184V,3TC-resistant (RT M184V),<0.003 µM
Nc1ncnc2c1ncn2[C@H]1C[C@@](F)(CC(F)(F)P(=O)(O)O)CO1,-,PBMC,-,-,23.8 µM
Nc1nc2c(ncn2[C@@H]2C[C@H](CO)[C@@H](O)[C@H]2O)c(=O)o1,chronic infection,U-937/HIV-1(IIIB) + U-937,-,IIIB,>100 µg/mL
Nc1nc(Cl)nc2c1ncn2[C@@H]1C[C@@H](O)[C@H](CO)O1,-,PBMC,-,LAV,>10 µM
[N-]=[N+]=N[C@@H]1C[C@@H](n2cc(F)c(N)nc2=O)O[C@H]1CO,-,PBMC,-,LAI,0.05 µM
COC(=O)C(C)CNP(=O)(OC[C@@H]1CC[C@H](n2cc(C)c(=O)[nH]c2=O)O1)Oc1ccc(F)cc1,-,PBMC,-,-,3.1 µM
O=C(CNC(=O)C(=O)/C=C(\O)c1cccn1Cc1ccc(F)cc1)OC[C@@H]1CC[C@H](n2ccc(=O)[nH]c2=O)O1,-,CEM + CEM-SS,-,LAI,>10 µM
Nc1ccn([C@H]2CC[C@@H](CO)O2)c(=O)n1,-,PBMC,-,LAV,0.011 µM
Nc1c(S(=O)(=O)[O-])cc2c3c(cc(S(=O)(=O)[O-])cc13)C(=O)N(NC(=O)N/N=C\c1cccc(C=O)c1)C2=O.[Na+].[Na+],-,-,-,LAV,>1760 µM

Repeating the final 7 entries:

smiles	conditions	cells	mutations	strain	result
Nc1nc2c(ncn2[C@@H]2C[C@H](CO)[C@@H](O)[C@H]2O)c(=O)o1	chronic infection	U-937/HIV-1(IIIB) + U-937	-	IIIB	>100 µg/mL
Nc1nc(Cl)nc2c1ncn2[C@@H]1C[C@@H](O)[C@H](CO)O1	-	PBMC	-	LAV	>10 µM
[N-]=[N+]=N[C@@H]1C[C@@H](n2cc(F)c(N)nc2=O)O[C@H]1CO	-	PBMC	-	LAI	0.05 µM
COC(=O)C(C)CNP(=O)(OC[C@@H]1CC[C@H](n2cc(C)c(=O)[nH]c2=O)O1)Oc1ccc(F)cc1	-	PBMC	-	-	3.1 µM
O=C(CNC(=O)C(=O)/C=C(\O)c1cccn1Cc1ccc(F)cc1)OC[C@@H]1CC[C@H](n2ccc(=O)[nH]c2=O)O1	-	CEM + CEM-SS	-	LAI	>10 µM
Nc1ccn([C@H]2CC[C@@H](CO)O2)c(=O)n1	-	PBMC	-	LAV	0.011 µM
Nc1c(S(=O)(=O)[O-])cc2c3c(cc(S(=O)(=O)[O-])cc13)C(=O)N(NC(=O)N/N=C\c1cccc(C=O)c1)C2=O.[Na+].[Na+]	-	-	-	LAV	>1760 µM

Blank or dashed fields: not listed here. Rows are shuffled and stem from different studies.